# Reference: publication PMC2946308, “Sialic acid transport and catabolism are cooperatively regulated by SiaR and CRP in nontypeable Haemophilus influenzae” (BMC Microbiology, 2010)
# The exact form of at least one protein or probe is not confirmed.
# Tested on: SiaR + CRP
# Experiment: EMSA
# Conditions: 100 uM cAMP, 1 uM each, higher shift, simultaneous binding; 150 mM KCl, 0.1 mM DTT, 0.1 mM EDTA, 10 mM Tris pH 7.4, 15 nM probe, room temperature 20 min; 6% gel, 0.5x TBE; recombinant protein; label: none (SYBR Green stain); probe letters rebuilt from the primers and the genome
sequence,measurement,value
ACACCCCTCATTTAAATCTGAATAAATCACTTTAAAATTAATTTAATCCACATAAAACAATCTTTTATAAATTGTAATATGCTTATATTTTCATCATTTAACATTATTATATGAAAAAGAAATGCCATTTTAAAGAATATTTTTGAAGTGTTTTTTCACAAATGTGATCAACTTCTCATTTTTGAAATAAAACTCGTAAAACTATTTTAAATTTGTTTTTTTACTCTTAGAATTGCTCTCGAATCCTATTTTGGGGG (double strand) [nan-siaPT intergenic region probe],binding result,binds
